Reference: PMC11273936, “The Antimicrobial Peptide Capitellacin: Chemical Synthesis of Analogues to Probe the Role of Disulphide Bridges and Their Replacement with Vinyl Sulphides” (Antibiotics, 2024)

What was measured:
E. coli ATCC 25922 [1] = settings: recombinant capitellacin; ref Panteleev et al. (2020) [12]; cited from earlier work
P. aeruginosa SVB-B9 = assay: MIC assay, bacteria (CLSI broth microdilution); assay type: cell-based, Pseudomonas aeruginosa; settings: Gram negative, CA-MHB, 37 °C with shaking, 18 h, ~5 x10^5 CFU/mL, triplicate, three biological replicates
E. coli ATCC 25922 [2] = assay: MIC assay, bacteria (CLSI broth microdilution); assay type: cell-based, Escherichia coli; settings: for Minimum Inhibitory Concentrations, E. coli ATCC 25922: Gram negative, CLSI broth microdilution, CA-MHB, 37 °C with shaking, 18 h, ~5 x10^5 CFU/mL, triplicate, three biological replicates
S. aureus ATCC 25923 = settings: recombinant capitellacin; ref Panteleev et al. (2020) [12]; cited from earlier work
P. aeruginosa PAO1 = settings: recombinant capitellacin; ref Panteleev et al. (2020) [12]; cited from earlier work
S. aureus ATCC 25913 = assay: MIC assay, bacteria (CLSI broth microdilution); assay type: cell-based, Staphylococcus aureus; settings: Gram positive, CA-MHB, 37 °C with shaking, 18 h, ~5 x10^5 CFU/mL, triplicate, three biological replicates

Compound: CC[C@H](C)[C@@H]1NC(=O)[C@@H](NC(=O)[C@@H](NC(=O)[C@H](CCCNC(=N)N)NC(=O)[C@@H]2CCCN2C(=O)[C@@H](N)CO)C(C)C)CSSC[C@@H](C(=O)N[C@@H](Cc2c[nH]c3ccccc23)C(=O)NCC(=O)O)NC(=O)[C@H](CCCNC(=N)N)NC(=O)[C@H](CCCNC(=N)N)NC(=O)[C@H](Cc2ccc(O)cc2)NC(=O)[C@@H]2CSSC[C@H](NC(=O)[C@H](C(C)C)NC(=O)[C@H](CCCNC(=N)N)NC1=O)C(=O)N[C@@H](CCCNC(=N)N)C(=O)N[C@@H](CC(N)=O)C(=O)NCC(=O)N[C@@H](C(C)C)C(=O)N2
- Minimum Inhibitory Concentrations, E. coli ATCC 25922 (E. coli ATCC 25922 [1]): 0.5 µM
- Minimum Inhibitory Concentrations, P. aeruginosa SVB-B9 (type strain) (P. aeruginosa SVB-B9): 4 µM
- Minimum Inhibitory Concentrations, E. coli ATCC 25922 (E. coli ATCC 25922 [2]): 1 µM
- Minimum Inhibitory Concentrations, S. aureus ATCC 25923 (S. aureus ATCC 25923): 8 µM
- Minimum Inhibitory Concentrations, P. aeruginosa PAO1 (P. aeruginosa PAO1): 2 µM
- Minimum Inhibitory Concentrations, S. aureus ATCC 25913 (S. aureus ATCC 25913): >64 µM

Compound: CC[C@@H](C)[C@H]1NC(=O)[C@H](NC(=O)[C@H](NC(=O)[C@@H](CCCNC(=N)N)NC(=O)[C@H]2CCCN2C(=O)[C@H](N)CO)C(C)C)CSSC[C@H](C(=O)N[C@H](Cc2c[nH]c3ccccc23)C(=O)NCC(=O)O)NC(=O)[C@@H](CCCNC(=N)N)NC(=O)[C@@H](CCCNC(=N)N)NC(=O)[C@@H](Cc2ccc(O)cc2)NC(=O)[C@H]2CSSC[C@@H](NC(=O)[C@@H](C(C)C)NC(=O)[C@@H](CCCNC(=N)N)NC1=O)C(=O)N[C@H](CCCNC(=N)N)C(=O)N[C@H](CC(N)=O)C(=O)NCC(=O)N[C@H](C(C)C)C(=O)N2
- Minimum Inhibitory Concentrations, P. aeruginosa SVB-B9 (type strain) (P. aeruginosa SVB-B9): 8 µM
- Minimum Inhibitory Concentrations, E. coli ATCC 25922 (E. coli ATCC 25922 [2]): 4 µM
- fold reduction in activity towards the Gram-negative strains tested (E. coli ATCC 25922 [2]; compared to synthetic capitellacin (1), E. coli and P. aeruginosa): 2–4 fold
- Minimum Inhibitory Concentrations, S. aureus ATCC 25913 (S. aureus ATCC 25913): >64 µM

Read-outs that look alike come from different tables or passages of the source.
